PubChem BioAssay AID602314 (ICCB-Longwood Screening Facility, Harvard Medical School, 2012)
This is a selection; strong and weak results do not stand in their true shares. Activity calls are given as the source filed them. No stated cut-off is given here; in the data, active means inhibition above about 30% (passing the limit was not always enough); inactive means the rest.

Each compound was assayed on MgrA (MarR family transcriptional regulator), Staphylococcus aureus Newman (assay: modulators of MgrA DNA binding – biochemical, S. aureus Newman, fluorescence polarization, primary screen (AID 602314;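 further: 0% = protein plus DNA without compound and 100% = DNA alone without protein; higher means less MgrA bound to DNA so lower polarization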)). Details: stronger effect = higher value, concentration not given here.
In the case of `CCCN1CCC(Nc2cc(OC)cc(OC)c2)CC1`, the inhibition is reported as inactive: -0.3%. `NC(=O)C1(Nc2ccccc2)CCN(Cc2ccccc2)CC1` was tested, and the inhibition was inactive: -1.15%. With `CN1CCC(Nc2ccc(F)cc2)CC1` the inhibition was inactive: -2.5%. For `CC(C)(C)OC(=O)N1CCC(Nc2ccccc2)CC1`, the inhibition was inactive: -0.45%. `CC1CN(CCc2ccccc2)C(C)CC1=O` (configuration not stated) was tested, and the inhibition was inactive: -1.35%. For `CCN1CCC(Nc2ccc(F)cc2)CC1`, the inhibition was inactive: -2.65%. For `CCOC(=O)N1CCC(Nc2ccc(F)cc2)CC1`, the inhibition was inactive: 0.25%. For `CCOC(=O)N1CCC(Nc2cccc(C)c2)CC1`, the inhibition was inactive: -0.7%. With `Cc1ccccc1NC1CC(C)(C)NC(C)(C)C1` the inhibition was inactive: -2.8%. For `CCCN1CCC(Nc2ccc(OC)c(OC)c2)CC1`, the inhibition was inactive: -1.5%. `CC1CN(CCc2ccccc2)CCC1=O` (configuration not stated) was tested, and the inhibition was inactive: -1.5%. `FC(F)(F)Oc1ccc(NC2CCNCC2)cc1` was tested, and the inhibition was inactive: -2.55%. With `c1ccc(CN2CCC(Nc3ccc4c(c3)OCO4)CC2)cc1` the inhibition was inactive: 4.1%. For `NC(=O)C1(Nc2ccc(F)cc2)CCNCC1`, the inhibition was inactive: -1.3%. In the case of `CC(C)(C)OC(=O)N1CCC(Nc2ccc(OC(F)(F)F)cc2)CC1`, the inhibition is reported as inactive: 0.75%. `N#CC(C#N)=Cc1ccc2c(c1)OCO2` was tested, and the inhibition was inactive: -1.3%. In the case of `CC(C)(C)OC(=O)N1CCC(=O)CC1`, the inhibition is reported as inactive: 3.8%.
